Measured values: the NIST ThermoML archive (doi:10.1021/je060138i)

Conditions: Crystal; visual observation

## O=P1(Cl)OCC2(CO1)COP(=O)(Cl)OC2 (stereo unspecified)
  Normal melting temperature: 239.00 ± 2.9 °C

Numbers after ± are expanded uncertainties.
